According to article PMC10508830 (Antiviral research, 2023):

Experiments:
[1] = test system: clade 2.3.4.4b A(H5N1) viruses that lack flagged PA mutations (n = 17); details: HINT and IRINA; baseline
[2] = test system: A/red-shouldered hawk/Minnesota/22-012000-004/2022 (PA K29R); details: read-out: Mean EC50 ± SD; HINT; MDCK-SIAT1 cells; hawk/MN-4/22, PA K29R

SMILES: O=C1c2c(O)c(=O)ccn2N([C@@H]2c3ccccc3SCc3c2ccc(F)c3F)[C@@H]2COCCN12 [Baloxavir, baloxavir acid]
- median EC50 [1]: sub-nanomolar range
- EC50 [2]: 0.53 nM
